For orientation: Km means the substrate concentration at which the rate is half of its maximum. Broadly, the kcat is the maximal rate divided by the concentration of active sites. Usually kcat/Km stands for the turnover number divided by the Michaelis constant.

For the first data set, the system named is CC(C)(COP(=O)(O)OP(=O)(O)OC[C@H]1O[C@@H](n2cnc3c(N)ncnc32)[C@H](O)[C@@H]1OP(=O)(O)O)[C@@H](O)C(=O)NCCC(=O)NCCSC(=O)C[C@@](C)(O)CC(=O)O. Put plainly: purified protein. To be noted: 50 mM HEPES-K pH 8.0, 2 mM EDTA, 0.3 mM DTNB, 37 °C.
Regarding “PA5202 (Pseudomonas aeruginosa PAO1; H48A)”, the Km stood at 200 ± 20 µM, the kcat came to 1.1 s⁻¹ and the kcat/Km is 5000 M⁻¹ s⁻¹.
Turning to “PA5202 (Pseudomonas aeruginosa PAO1; R41A)”, the Km came to 400 ± 60 µM, the kcat is 1.3 s⁻¹ and the kcat/Km came to 4000 M⁻¹ s⁻¹.
With “PA5202 (Pseudomonas aeruginosa PAO1; R85A)”, the Km is 500 ± 50 µM, the turnover number (kcat) stood at 2.1 s⁻¹ and the catalytic efficiency (kcat/Km) is 4000 M⁻¹ s⁻¹.
For “PA5202 (Pseudomonas aeruginosa PAO1; R103A)” the same measures were 1000 ± 100 µM, 1.8 s⁻¹ and 2000 M⁻¹ s⁻¹.
In the case of “PA5202 (Pseudomonas aeruginosa PAO1; R104A)”, the Km stood at 400 ± 30 µM, the turnover number (kcat) was found to be 1.2 s⁻¹ and the specificity constant (kcat/Km) is 3000 M⁻¹ s⁻¹.
“PA5202 (Pseudomonas aeruginosa PAO1; S54A)”: the Michaelis-Menten constant (Km) came to 100 ± 10 µM, the catalytic constant (kcat) was found to be 0.5 s⁻¹ and the catalytic efficiency (kcat/Km) worked out at 5000 M⁻¹ s⁻¹.
Consider “PA5202 (Pseudomonas aeruginosa PAO1; S65A)”, for which the Km is 500 ± 40 µM, the catalytic constant (kcat) was found to be 3.9 s⁻¹ and the kcat/Km came out at 7000 M⁻¹ s⁻¹.
For “PA5202 (Pseudomonas aeruginosa PAO1; S105A)” the same measures were 500 ± 40 µM, 2.7 s⁻¹ and 5000 M⁻¹ s⁻¹.

Another data set has as its system CCCCCC(=O)SCCNC(=O)CCNC(=O)[C@H](O)C(C)(C)COP(=O)(O)OP(=O)(O)OC[C@H]1O[C@@H](n2cnc3c(N)ncnc32)[C@H](O)[C@@H]1OP(=O)(O)O. Put plainly: purified protein. The settings on record: 50 mM HEPES-K pH 8.0, 2 mM EDTA, 0.3 mM DTNB, 37 °C.
Take “PA5202 (Pseudomonas aeruginosa PAO1; R43A)”: the Michaelis-Menten constant (Km) came out at 600 ± 50 µM, the kcat stood at 1.1 s⁻¹ and the kcat/Km worked out at 2000 M⁻¹ s⁻¹.

The record behind these values is paper PMC3836677 (The Biochemical journal, 2012).
